Measured values from several laboratories, pooled; numbers as filed in NIAID ChemDB.

Common to all: enzyme or target tests

Blank or dashed fields: not listed here. ICn is the concentration giving n% inhibition. Inhibition is in % at the dose shown (toxicity tests: loss of growth or viability). Two numbers with a dash give a range or band. Rows are shuffled and stem from different studies.

smiles	strain or isolate	measure	target	species	method	tested at	value
c1ccc(-c2ccc(-c3cnc4c(-c5nn[nH]n5)cnn4c3C3CCCCC3)cc2)cc1	-	IC50	RNA-dependent RNA polymerase	Hepatitis C virus	-	-	1–10 µM
O=C(Cc1cccnc1)C1C(=O)CC(CCc2cccc(Cl)c2)(C2CCCC2)OC1=O	-	IC50	Nonstructural protein 5B	Hepatitis C virus	-	-	1–10 µM
O=C(O)c1ccc2c(c1)nc(-c1cc3ccc(-c4ccccc4-c4ccc(Cl)cc4)nc3cc1F)n2C1CCCCC1	-	inhibition	NS5B polymerase	Hepatitis C virus	-	100 µM	98.86%
O=C(O)c1cc2nc(-c3ccc(Cl)cc3)cc(N3CCc4ccccc4C3)n2n1	-	IC50	RNA-dependent RNA polymerase	Hepatitis C virus	-	-	>10 µM
O=C(O)c1ccc2c(c1)nc(-c1ccc3nc(-c4ccccc4)cc(NCCCn4ccnc4)c3c1)n2C1CCCCC1	-	inhibition	NS5B polymerase	Hepatitis C virus	-	33 µM	76.27%
NCCCC[C@H](NC(=O)c1cnn2c(C3CCCCC3)c(-c3ccc(F)cc3)cnc12)C(=O)O	-	IC50	RNA-dependent RNA polymerase	Hepatitis C virus	-	-	1–10 µM
CCN(CC)c1ncc(CN(C(=O)c2ccc(Cl)cc2Cl)[C@@H](Cc2ccccc2)C(=O)O)s1	-	IC50	RNA-dependent RNA polymerase	Hepatitis C virus	-	-	<5 µM
Cc1[nH]c2ccccc2c1CC(=O)Nc1cscc1-c1nc(C(=O)O)c(O)c(=O)[nH]1	-	IC50	HCV polymerase	Hepatitis C virus	-	-	<25 µM
Cc1nn(-c2ccccc2)c(C)c1-c1ccc2cc(-c3nc4cc(C(=O)O)ccc4n3C3CCCCC3)ccc2n1	-	inhibition	NS5B polymerase	Hepatitis C virus	-	100 µM	100%
O=C(O)c1nc(-c2sccc2NC(=O)C2CN(C(c3ccccc3)c3ccccc3)C2)[nH]c(=O)c1O	-	IC50	HCV polymerase	Hepatitis C virus	-	-	<25 µM
COC(=O)c1ccc(-c2ccc(CN(C(=O)c3ccc(Cl)cc3Cl)[C@@H](Cc3ccccc3)C(=O)O)s2)cc1	-	IC50	RNA-dependent RNA polymerase	Hepatitis C virus	-	-	<5 µM
COCCNC(=O)c1ccc(C(=O)N2CCN(c3ncccc3NC(C)C)CC2)nc1	-	IC50	Reverse transcriptase	Hepatitis B virus	-	-	0.001 µg/mL
O=C(/C=C/c1ccc(O)c(O)c1)O[C@H]1[C@H](O)C[C@](O)(C(=O)O)C[C@H]1OC(=O)/C=C/c1ccc(O)c(O)c1	HepG 2.2.15	inhibition	HBsAg	Hepatitis B virus	ELISA	10 µg/mL	5.48%
COc1ccc(CCC2(C3CCCC3)CC(O)=C(Sc3n[nH]c(=O)n3C)C(=O)O2)cc1	-	IC50	Nonstructural protein 5B	Hepatitis C virus	-	-	1–10 µM
CC(=O)N[C@@H](CCC(=O)O)C(=O)N[C@H](CC(C(=O)O)C(=O)O)C(=O)N[C@H](C(=O)N[C@@H](CCC(=O)O)C(=O)N[C@@H](CC1CCCCC1)C(=O)N[C@@H](CS)C(=O)C(=O)O)C(c1ccccc1)c1ccccc1	-	Ki	NS3/NS4A serine protease	Hepatitis C virus	-	-	0.014 µM
CCC(NC(=O)Nc1ccsc1-c1nc(C(=O)O)c(O)c(=O)[nH]1)c1ccccc1	-	IC50	HCV polymerase	Hepatitis C virus	-	-	<25 µM
CC(C)NC(=O)c1ccc(C(=O)N2CCN(c3ncccc3NC(C)C)CC2)nc1	-	IC50	Reverse transcriptase	Hepatitis B virus	-	-	0.149 µg/mL
O=C(Cc1ccsc1)Nc1ccsc1-c1nc(C(=O)O)c(O)c(=O)[nH]1	-	IC50	HCV polymerase	Hepatitis C virus	-	-	<25 µM
CN(C)CCNc1cc(C(=O)Nc2ccc3[nH]ncc3c2)c(F)cc1F	-	IC50	Reverse transcriptase	Hepatitis B virus	-	-	0.01–0.1 µg/mL
COc1ccc(N(C)c2cc(-c3ccc(Cl)cc3)nc3cc(C(=O)O)nn23)cc1	-	IC50	RNA-dependent RNA polymerase	Hepatitis C virus	-	-	>10 µM
COc1ccc2c(O[C@@H]3C[C@H]4C(=O)C[C@]5(P(=O)(O)Cc6c(F)cccc6F)C[C@H]5CCCCCCC[C@H](CC(=O)OC5CCCC5)C(=O)N4C3)cc(-c3csc(NC(C)C)n3)nc2c1Cl	JFH-1 (gt 2a)	Ki	Nonstructural protein 3 protease	Hepatitis C virus	fluorescence	-	0.0038 µM
COc1cc(C(=O)N2[C@@H](c3nccs3)[C@H](c3nnc(C)o3)C[C@@]2(CC(C)C)C(=O)O)ccc1C(C)(C)C	-	IC50	RNA-dependent RNA polymerase	Hepatitis C virus	-	-	<50 µM
Cn1c2ccc(Cl)cc2c2cc(-c3ccc4cc(-c5nc6cc(C(=O)O)ccc6n5C5CCCCC5)ccc4n3)ccc21	-	inhibition	NS5B polymerase	Hepatitis C virus	-	33 µM	95.99%
CC(=O)N[C@@H](CC(=O)O)C(=O)N[C@H](CC(C(=O)O)C(=O)O)C(=O)N[C@H](C(=O)N[C@@H](CC(C)C)C(=O)N[C@@H](CC1CCCCC1)C(=O)N[C@@H](CS)C(=O)C(=O)O)C(c1ccccc1)c1ccccc1	-	Ki	NS3/NS4A serine protease	Hepatitis C virus	-	-	0.00004 µM
CC(C)C[C@@]1(C(=O)O)C[C@H](c2nc3ccccc3o2)[C@H](c2nccs2)N1C(=O)c1ccc(C(C)(C)C)c(Br)c1	-	IC50	RNA-dependent RNA polymerase	Hepatitis C virus	-	-	<50 µM
O=C(NCc1cc(Cl)ccc1Cl)Nc1ccccc1-c1nc(C(=O)O)c(O)c(=O)[nH]1	-	IC50	HCV polymerase	Hepatitis C virus	-	-	<100 µM
CC(=O)N[C@@H](CC(=O)O)C(=O)N[C@H](C(=O)CCC(=O)O)C(=O)N[C@H](C(=O)N[C@@H](CCC(=O)O)C(=O)N[C@@H](CC1CCCCC1)C(=O)N[C@@H](CS)C(=O)C(=O)O)C(c1ccccc1)c1ccccc1	-	Ki	NS3/NS4A serine protease	Hepatitis C virus	-	-	0.87 µM
O=C(O)[C@H](Cc1ccccc1)N(Cc1ccc(-c2cccc(C(F)(F)F)c2)o1)C(=O)c1ccc(Cl)cc1Br	-	IC50	RNA-dependent RNA polymerase	Hepatitis C virus	-	-	<5 µM
Nc1cccnc1N1CCN(C(=O)c2ccc(C(=O)NCc3ccccn3)cn2)CC1	-	IC50	Reverse transcriptase	Hepatitis B virus	-	-	0.106 µg/mL
COc1ccc(CCC2(C3CCCC3)CC(O)=C(Sc3ccc(O)cc3)C(=O)O2)cc1Cl	-	IC50	Nonstructural protein 5B	Hepatitis C virus	-	-	<1 µM
CC(=O)N[C@@H](CC(=O)O)C(=O)N[C@H](CC(C(=O)O)C(=O)O)C(=O)N[C@H](C(=O)N[C@@H](CCC(=O)O)C(=O)N[C@@H](CC(=O)O)C(=O)N[C@@H](CS)C(=O)C(=O)O)C(c1ccccc1)c1ccccc1	-	Ki	NS3/NS4A serine protease	Hepatitis C virus	-	-	0.00005 µM
CC(C)C[C@@]1(C(=O)O)C[C@@H](c2ccno2)[C@H](c2nccs2)N1C(=O)c1ccc(C(C)(C)C)cc1	-	IC50	RNA-dependent RNA polymerase	Hepatitis C virus	-	-	<50 µM
O=C(NCc1ccc2c(c1)CCO2)Nc1cscc1-c1nc(C(=O)O)c(O)c(=O)[nH]1	-	IC50	HCV polymerase	Hepatitis C virus	-	-	<25 µM
Nc1ccc(-c2ccc3cc(-c4nc5cc(C(=O)O)ccc5n4C4CCCCC4)ccc3n2)cc1	-	inhibition	NS5B polymerase	Hepatitis C virus	-	33 µM	85.08%
CO[C@@H]1[C@H](O)[C@@H](COP(=O)(O)OP(=O)(O)OP(=O)(O)O)O[C@H]1n1ccc(N)nc1=O	-	IC50	Replicase complex	Hepatitis C virus	-	-	3.5 µM
CO[C@@H]1[C@H](O)[C@@H](COP(=O)(O)OP(=O)(O)OP(=O)(O)O)O[C@H]1n1cnc2c(N)ncnc21	-	IC50	NS5B delta .21	Hepatitis C virus	-	-	4.7 µM
CN(C)S(=O)(=O)c1ccc(CCC2(C3CCCC3)CC(=O)CC(=O)O2)cc1	-	IC50	Nonstructural protein 5B	Hepatitis C virus	-	-	10–50 µM
CCNc1cccnc1N1CCN(C(=O)c2ccc(C(=O)NCCO)cn2)CC1	-	IC50	Reverse transcriptase	Hepatitis B virus	-	-	0.007 µg/mL
Nc1ncnc2c1ccn2[C@@H]1O[C@H](COP(=O)(O)OP(=O)(O)OP(=O)(O)O)C[C@H]1O	-	IC50	NS5B delta .21	Hepatitis C virus	-	-	12 µM
CC(C)Nc1cccnc1N1CCN(C(=O)c2ccc(C(=O)NC(C)(C)CO)cn2)CC1	-	IC50	Reverse transcriptase	Hepatitis B virus	-	-	0.001 µg/mL
O=C(O)c1cccc(-c2ccc(CN(C(=O)c3ccc(Cl)cc3Cl)[C@@H](Cc3ccccc3)C(=O)O)o2)c1	-	IC50	RNA-dependent RNA polymerase	Hepatitis C virus	-	-	<5 µM
O=C(O)c1ccc2c(c1)nc(-c1ccc3nc(-c4cc(O)ccc4-c4ccc(Cl)cc4)ccc3c1)n2C1CCCCC1	-	inhibition	NS5B polymerase	Hepatitis C virus	-	33 µM	101%
O=C1C=C(O)CC(CCC2CCCC2)(C2CCCC2)O1	-	IC50	Nonstructural protein 5B	Hepatitis C virus	-	-	10–50 µM
COc1ccc(-c2ccccc2C)c(-c2ccc3cc(-c4nc5cc(C(=O)O)ccc5n4C4CCCCC4)ccc3n2)c1	-	inhibition	NS5B polymerase	Hepatitis C virus	-	33 µM	103%
O=C(Nc1ccc2cn[nH]c2c1)c1cc(NCCCn2ccnc2)c(F)cc1F	-	inhibition	Reverse transcriptase	Hepatitis B virus	-	0.01 µg/mL	30%
CC(C)=CCN(C(=O)c1ccc(Cl)cc1Cl)[C@@H](Cc1ccccc1)C(=O)O	-	IC50	RNA-dependent RNA polymerase	Hepatitis C virus	-	-	5–20 µM
O=C(NC(C(=O)O)c1cccc(O)c1)c1cnn2c(C3CCCCC3)c(-c3ccc(F)cc3)cnc12	-	IC50	RNA-dependent RNA polymerase	Hepatitis C virus	-	-	<1 µM
CC(=O)N[C@@H](CC(=O)O)C(=O)N[C@H](CC(C(=O)O)C(=O)O)C(=O)N[C@@H](Cc1c[nH]c2c(O)cccc12)C(=O)N[C@@H](CCC(=O)O)C(=O)N[C@@H](CC1CCCCC1)C(=O)N[C@H](C(=O)O)C(=O)S	-	Ki	NS3/NS4A serine protease	Hepatitis C virus	-	-	0.007 µM
Cc1nc([C@H]2C[C@@](CC(C)C)(C(=O)O)N(C(=O)c3ccc(C(C)(C)C)cc3)[C@H]2c2nccs2)no1	-	IC50	RNA-dependent RNA polymerase	Hepatitis C virus	-	-	<50 µM
Cc1cc(SC2=C(O)CC(C)(C)OC2=O)c(C(C)(C)C)cc1N	-	IC50	Nonstructural protein 5B	Hepatitis C virus	-	-	>50 µM
COc1cccc(-c2ccc3cc(-c4nc5cc(C(=O)O)ccc5n4C4CCCCC4)ccc3n2)c1	-	inhibition	NS5B polymerase	Hepatitis C virus	-	100 µM	97.89%
Nc1nc2c(ccn2[C@@H]2O[C@H](COP(=O)(O)OP(=O)(O)OP(=O)(O)O)C[C@H]2O)c(=O)[nH]1	-	IC50	NS5B delta .21	Hepatitis C virus	-	-	7.2 µM
O=C(Nc1ccc2[nH]ncc2c1)c1cc(NCCN2CCCC2)c(F)cc1F	-	inhibition	Reverse transcriptase	Hepatitis B virus	-	0.1 µg/mL	54%
CC(C)C[C@@]1(C(=O)O)C[C@H](c2nc(-c3ccc(F)cc3)no2)[C@H](c2nccs2)N1C(=O)c1ccc(C(C)(C)C)c(Br)c1	-	IC50	RNA-dependent RNA polymerase	Hepatitis C virus	-	-	<50 µM
COc1ccccc1CNC(=O)Nc1ccccc1-c1nc(C(=O)O)c(O)c(=O)[nH]1	-	IC50	HCV polymerase	Hepatitis C virus	-	-	<100 µM
CC(C)CNc1cc(C(=O)Nc2ccc3cn[nH]c3c2)c(F)cc1F	-	inhibition	Reverse transcriptase	Hepatitis B virus	-	1 µg/mL	42%
Nc1nc2c(ncn2[C@@H]2O[C@H](COP(=O)(O)OP(=O)(O)OP(=O)(O)O)[C@@H](O)[C@H]2O)c(=O)[nH]1	-	IC50	NS5B delta .21	Hepatitis C virus	-	-	7.9 µM
O=C(O)c1cnn2c(C3CCCCC3)c(-c3cccc(Oc4cccc(C(F)(F)F)c4)c3)cnc12	-	IC50	RNA-dependent RNA polymerase	Hepatitis C virus	-	-	1–10 µM
COCCCNC(=O)c1ccc(C(=O)N2CCN(c3ncccc3NC(C)C)CC2)nc1	-	IC50	Reverse transcriptase	Hepatitis B virus	-	-	0.13 µg/mL
O=C1CC(=O)OC(CCc2cccc3ccccc23)(C2CCCC2)C1	-	IC50	Nonstructural protein 5B	Hepatitis C virus	-	-	>50 µM
O=C(Nc1ccc2[nH]ncc2c1)c1cc(NCCc2ccccn2)c(F)cc1F	-	inhibition	Reverse transcriptase	Hepatitis B virus	-	0.1 µg/mL	23%
COc1cc(C)c(S(=O)(=O)N(Cc2c(C(F)(F)F)nn(Cl)c2C(=O)c2ccc(Cl)cc2Cl)[C@@H](Cc2ccccc2)C(=O)O)c(C)c1C	-	IC50	RNA-dependent RNA polymerase	Hepatitis C virus	-	-	5–20 µM
CC(C)Nc1cccnc1N1CCN(C(=O)c2ccc(C(=O)NCc3ccccn3)cn2)CC1	-	IC50	Reverse transcriptase	Hepatitis B virus	-	-	0.007 µg/mL
CC(C)C[C@@]1(C(=O)O)C[C@H](c2ncno2)[C@H](c2nccs2)N1C(=O)c1ccc(C(C)(C)C)c(Br)c1	-	IC50	RNA-dependent RNA polymerase	Hepatitis C virus	-	-	<50 µM
COCCCNC(=O)c1ccc(C(=O)N2CCN(c3ncccc3NCC(C)C)CC2)nc1	-	IC50	Reverse transcriptase	Hepatitis B virus	-	-	0.123 µg/mL
COc1cc(C(=O)N2[C@@H](c3cccs3)[C@H](c3noc(C)n3)C[C@@]2(CC(C)C)C(=O)O)ccc1C(C)(C)C	-	IC50	RNA-dependent RNA polymerase	Hepatitis C virus	-	-	<50 µM
CC(C)=CCCc1c(-c2ccc(OCc3ccccc3)cc2)nc2c(C(=O)O)c[nH]n2c1=O	-	IC50	RNA-dependent RNA polymerase	Hepatitis C virus	-	-	1–10 µM
C=CCN(C(=O)c1ccc(Cl)cc1I)C(Cc1ccccc1)C(=O)O	-	IC50	RNA-dependent RNA polymerase	Hepatitis C virus	-	-	5–20 µM